Compound potency records, mixed from different reports. Data source: NIAID ChemDB in PubChem.

Shared fields: tests in culture; organism: Candida albicans; read-out: MIC

Rows are shuffled and stem from different studies. Blank or dashed fields: not listed here.

compound | strain | value
CCCCNC(=S)c1ccc[nH]c1=S |  | 25 µg/mL
CNC1C(C)OC(O[C@H]2c3cc(C)c(C(=O)N[C@H](C)C(N)=O)c(O)c3-c3c(cc4c(c3O)C(=O)c3cc(OC)cc(O)c3C4=O)[C@@H]2O)C(O)C1OC1OCC(O)C(O)C1O | A9540 | 12.5 µg/mL
CCOC(=O)c1cc(C#N)c2oc3ccccc3n2c1=O |  | >200 µg/mL
CCC(O)/C=C/C=C/C=C/C(=O)OC[C@H]1O[C@@H](O[C@H]2[C@H](OC(=O)/C=C/C=C/CC(O)/C(C)=C/C=C/CCC(C)CC)[C@@H](O)[C@@]3(OCc4cc(O)cc(O)c43)O[C@@H]2CO)[C@H](O)[C@@H](O)[C@H]1O | A9540 | 1.6 µg/mL
O=C1CS/C(=C/c2nc3ccccc3o2)N1 |  | >200 µg/mL
COc1ccc(C=NC23CC4CC(CC(C4)C2)C3)cc1O |  | 128 µg/mL
N#C/C(=C1\SC(=O)CN1c1ccccc1)c1nc2ccccc2o1 |  | >200 µg/mL
Cc1c(/C(=N/OC(=O)c2ccccc2)c2ccc(Cl)cc2)oc2ccccc12 |  | >512 µg/mL
S=c1c2cccnc2sn1CCCc1ccccc1 |  | 30 µg/mL
CO[C@H]1C[C@@H]2CC[C@@H](C)[C@@](O)(O2)C(=O)C(=O)N2CCCC[C@H]2C(=O)O[C@H]([C@H](C)C[C@@H]2CC[C@H](c3nn[nH]n3)[C@H](OC)C2)CC(=O)[C@H](C)/C=C(\C)[C@@H](O)[C@@H](OC)C(=O)[C@H](C)C[C@H](C)CCCC/C=C/1C | 442 | >100 µg/mL
Cc1c(/C(=N/OCc2ccccc2)c2ccc(Cl)cc2)oc2ccccc12 |  | 8 µg/mL
Cc1c(O)cccc1C(=O)N[C@@H](CSc1ccccc1)[C@H](O)CN1C[C@H]2CCCC[C@H]2C[C@H]1C(=O)NC(C)(C)C | I87A | >64 µg/mL
CO[C@@H]1C[C@H](C[C@@H](C)[C@@H]2CC(=O)[C@H](C)/C=C(\C)[C@@H](O)[C@@H](OC)C(=O)[C@H](C)C[C@H](C)/C=C/C=C/C=C(\C)[C@H](N(O)C(=O)N(C)C)C[C@@H]3CC[C@@H](C)[C@@](O)(O3)C(=O)C(=O)N3CCCC[C@H]3C(=O)O2)CC[C@H]1C(=O)ON(C)O | 442 | 100 µg/mL
CCCCCCNC(=S)c1ccc[nH]c1=S |  | 20 µg/mL
N#Cc1c(-c2ccccc2)cc(=O)n2c1oc1ccccc12 |  | <200 µg/mL
Cc1c(/C(=N\O)c2ccccc2)oc2ccccc12 |  | 4 µg/mL
CO[C@@H]1C[C@H](C[C@@H](C)[C@@H]2CC(=O)[C@H](C)/C=C(\C)[C@@H](O)[C@@H](OC)C(=O)[C@H](C)C[C@H](C)/C=C/C=C/C=C(\C)[C@H](N(O)C(N)=O)C[C@@H]3CC[C@@H](C)[C@@](O)(O3)C(=O)C(=O)N3CCCC[C@H]3C(=O)O2)CC[C@H]1C(=O)ON(C)O | 579A | 100 µg/mL
CNOC(=O)[C@@H](C)NC(=O)c1c(C)cc2c(c1O)-c1c(cc3c(c1O)C(=O)c1cc(OC)cc(O)c1C3=O)[C@H](O)[C@H]2OC1OC(C)C(NC)C(OC2OCC(O)C(O)C2O)C1O | A9540 | 12.5 µg/mL
COc1ccc(C=NC2C3CC4CC(C3)CC2C4)cc1OC |  | 128 µg/mL
CCCCn1sc2ncccc2c1=S |  | 30 µg/mL
CNC1C(C)OC(O[C@H]2c3cc(C)c(C(=O)N[C@H](C)C(=O)N[C@H](C)C(=O)O)c(O)c3-c3c(cc4c(c3O)C(=O)c3cc(OC)cc(O)c3C4=O)[C@@H]2O)C(O)C1OC1OCC(O)C(O)C1O | A9540 | >100 µg/mL
CC(=O)O/N=C(\c1ccccc1)c1oc2ccccc2c1C |  | 8 µg/mL
S=C(NCCCc1ccccc1)c1ccc[nH]c1=S |  | 10 µg/mL
CO[C@H]1C[C@@H]2CC[C@@H](C)[C@@](O)(O2)C(=O)C(=O)N2CCCC[C@H]2C(=O)O[C@H]([C@H](C)C[C@@H]2CC[C@@H](C(=O)ON(C)C)[C@H](OC)C2)CC(=O)[C@H](C)/C=C(\C)[C@@H](O)[C@@H](OC)C(=O)[C@H](C)C[C@H](C)CCCC/C=C/1C | 38247 | 50 µg/mL
CCOC(=O)[C@@H](C)NC(=O)c1c(C)cc2c(c1O)-c1c(cc3c(c1O)C(=O)c1cc(OC)cc(O)c1C3=O)[C@H](O)[C@H]2O[C@@H]1O[C@H](C)[C@H](NC)[C@H](O[C@@H]2OC[C@@H](O)[C@H](O)[C@H]2O)[C@H]1O | A9540 | >100 µg/mL
COc1ccc(/C(=N\OCc2ccccc2)c2oc3ccccc3c2C)cc1 |  | >512 µg/mL
c1ccc(CCN=c2ssc3ncccc23)cc1 |  | 30 µg/mL
CNC1C(C)OC(O[C@H]2c3cc(C)c(C(=O)N[C@H](C)C(=O)N[C@@H](CCCCN)C(=O)O)c(O)c3-c3c(cc4c(c3O)C(=O)c3cc(OC)cc(O)c3C4=O)[C@@H]2O)C(O)C1OC1OCC(O)C(O)C1O | A9540 | >100 µg/mL
CO[C@@H]1C[C@H](C[C@@H](C)[C@@H]2CC(=O)[C@H](C)/C=C(\C)[C@@H](O)[C@@H](OC)C(=O)[C@H](C)C[C@H](C)/C=C/C=C/C=C(\C)[C@@H](N(OC)C(=O)N(C)C)C[C@@H]3CC[C@@H](C)[C@@](O)(O3)C(=O)C(=O)N3CCCC[C@H]3C(=O)O2)CC[C@H]1C(=O)ON(C)O | 62376 | 50 µg/mL
CCCCn1c(N)c(-c2nc3ccccc3o2)sc1=S |  | >200 µg/mL

The last 2 rows once more:

CO[C@@H]1C[C@H](C[C@@H](C)[C@@H]2CC(=O)[C@H](C)/C=C(\C)[C@@H](O)[C@@H](OC)C(=O)[C@H](C)C[C@H](C)/C=C/C=C/C=C(\C)[C@@H](N(OC)C(=O)N(C)C)C[C@@H]3CC[C@@H](C)[C@@](O)(O3)C(=O)C(=O)N3CCCC[C@H]3C(=O)O2)CC[C@H]1C(=O)ON(C)O ; strain: 62376 ; value: 50 µg/mL
CCCCn1c(N)c(-c2nc3ccccc3o2)sc1=S ; value: >200 µg/mL